Assay results reported in patent publication US20120135013A1, “CD45 and Methods and Compounds Related Thereto” (priority 2007, published 2012).

System: J774A.1 cells
Type: cell-based, mouse

Row | Molecule | viability of J774A.1 cells following infection with Sterne B. anthracis spores | viability against B. anthracis infection
1 | NC(=O)CCCSC1=CC(=O)c2ccccc2C1=O [NSC 270012] | increased the viability | 
2 | CD45 PMO (CCACAAACCCATGGTCATATC; all phosphorodiamidate morpholino (PMO)) |  | increased viability
3 | O=C1C(SCCO)=C(SCCO)C(=O)c2ccccc21 [NSC 95397] | increased the viability | 
